Compound potency records, mixed from different reports. Data source: NIAID ChemDB in PubChem.

Common to all: growth or infection tests; agent: Candida albicans; measure: MIC50

Lines come from different laboratories, so protocols vary. An empty or dashed field is not shown. A number after MIC or MFC names an inhibition level or a share of isolates.

smiles | strain or isolate | setting | result
CC[C@@H]([C@H](C)O)n1ncn(-c2ccc(N3CCN(c4ccc(OC[C@@H]5CO[C@@](Cn6cncn6)(c6ccc(F)cc6F)C5)cc4)CC3)cc2)c1=O | 660 isolates | - | 0.03 µg/mL
COC(/C=C/c1ccccc1)=C1/C(=O)C=C(C)C1=O | Isolate 8 azole-resistant | - | 0.9 µg/mL
CC(=O)OCC1C=C(c2ccc(Cl)c(Cl)c2)C(=O)O1 | 25 isolates | - | 2 µg/mL
COc1ccc(CC(c2ccc(OC)cc2)n2cncn2)cc1 | 28 strains | - | 128 µg/mL
O=C(OC[C@H]1CO[C@](Cn2ccnc2)(c2ccc(-c3ccccc3)cc2)O1)c1ccccc1 | 44 strains | - | 16 µg/mL
CCC(C)n1ncn(-c2ccc(N3CCN(c4ccc(OC[C@@H]5CO[C@@](Cn6cncn6)(c6ccc(F)cc6F)O5)cc4)CC3)cc2)c1=O | 52 strains | - | 0.06 µg/mL
COc1ccccc1/C=C1/S/C(=N/NC(=O)c2sc(NC(=O)c3ccc(F)cc3)nc2C)N(c2ccccc2)C1=O | MTCC 227 | - | 250 µg/mL
N=C(N)N1CCN(Cc2cccnc2SCc2cc(F)ccc2F)CC1 | SC5314 CAI | - | >100 µg/mL
C[C@H]1[C@H](O)[C@@H](C)/C=C/C=C/C=C/C=C/C=C/C=C/C=C/[C@H](O[C@@H]2O[C@H](C)[C@@H](O)[C@H](N)[C@@H]2O)C[C@@H]2O[C@](O)(C[C@@H](O)C[C@@H](O)CC[C@H](O)[C@@H](O)C[C@@H](O)CC(=O)O[C@H]1C)C[C@H](O)[C@H]2C(=O)O | 32 strains | - | 1 µg/mL
CN1CCN(c2ccc3nc(-c4ccc5nc(-c6ccc(O)cc6)[nH]c5c4)[nH]c3c2)CC1 | RO20 | - | 9 µM
COc1ccc(C(Cc2ccc(Cl)cc2)n2cncn2)cc1 | 28 strains | - | 32 µg/mL
CCCCCOc1ccc(-c2cc(-c3ccc(C(=O)N[C@H]4C[C@@H](O)[C@@H](O)NC(=O)[C@@H]5[C@@H](O)[C@@H](C)CN5C(=O)[C@H]([C@H](O)CC(N)=O)NC(=O)[C@H]([C@H](O)[C@@H](O)c5ccc(O)c(OS(=O)(=O)O)c5)NC(=O)[C@@H]5C[C@@H](O)CN5C(=O)[C@H]([C@@H](C)O)NC4=O)cc3)no2)cc1 | 24 strains | - | 0.0156 µg/mL
CC[C@@H]([C@H](C)O)n1ncn(-c2ccc(N3CCN(c4ccc(OC[C@@H]5CO[C@@](Cn6cncn6)(c6ccc(F)cc6F)C5)cc4)CC3)cc2)c1=O | 166 isolates | - | 0.06 µg/mL
NC(N)=NCCCCCCCNCCCCCCCCCNC(N)=NCC1CC1 | 15T | - | 20 µM
Cc1nc(NC(=O)c2ccc(F)cc2)sc1C(=O)N/N=C1/S/C(=C/c2ccc(Cl)cc2)C(=O)N1c1ccccc1 | MTCC 227 | - | 500 µg/mL
C=C(C)CN=C(N)NCCCCCCCN1CCCCCCCCN=C(N)NC1=O | 15T | - | 20 µM
C[C@H]1[C@H](O)[C@@H](C)/C=C/C=C/C=C/C=C/C=C/C=C/C=C/[C@H](O[C@@H]2O[C@H](C)[C@@H](O)[C@H](N)[C@@H]2O)C[C@@H]2O[C@](O)(C[C@@H](O)C[C@@H](O)CC[C@H](O)[C@@H](O)C[C@@H](O)CC(=O)O[C@H]1C)C[C@H](O)[C@H]2C(=O)O | 50 isolates | - | 0.1 µg/mL
C[C@H]1[C@H](O)[C@@H](C)/C=C/C=C/C=C/C=C/C=C/C=C/C=C/[C@H](O[C@@H]2O[C@H](C)[C@@H](O)[C@H](N)[C@@H]2O)C[C@@H]2O[C@](O)(C[C@@H](O)C[C@@H](O)CC[C@H](O)[C@@H](O)C[C@@H](O)CC(=O)O[C@H]1C)C[C@H](O)[C@H]2C(=O)O | 58 strains | - | 0.5 µg/mL
CC[C@@H]([C@H](C)O)n1ncn(-c2ccc(N3CCN(c4ccc(OC[C@@H]5CO[C@@](Cn6cncn6)(c6ccc(F)cc6F)C5)cc4)CC3)cc2)c1=O | 1992 isolates | - | 0.03 µg/mL
COc1ccc([N+](=O)[O-])cc1CSc1ncccc1CN1CCN(C(=N)N)CC1 | SC5314 CAI | - | >100 µg/mL
Nc1[nH]c(=O)ncc1F | 50 isolates | - | 0.16 µg/mL
CS(=O)(=O)OC[C@H]1CO[C@](Cn2ccnc2)(c2ccc(-c3ccccc3)cc2)O1 | 44 strains | - | 64 µg/mL
Clc1cc(Cl)c(OCC#CI)cc1Cl | 13 strains | - | 1.56 µg/mL
COc1ccc(C(Cc2ccc(Cl)cc2Cl)C(c2ccc(OC)cc2)n2ccnc2)cc1 | 28 strains | - | 8 µg/mL
COc1ccc(C(Cc2ccc(F)cc2)n2ccnc2)cc1 | 34 strains | - | 64 µg/mL
N#Cc1cccc(CSc2ncccc2CN2CCN(C(=N)N)CC2)c1 | SC5314 CAI | - | >100 µg/mL
CCC(C)n1ncn(-c2ccc(N3CCN(c4ccc(OC[C@H]5CO[C@](Cn6cncn6)(c6ccc(Cl)cc6Cl)O5)cc4)CC3)cc2)c1=O | - | - | 0.063 µg/mL
CCCCCCCCCCCCCCCC(=O)NC1CCC(O)NC(=O)C2C(O)C(C)CN2C(=O)C(C(O)CC(N)=O)NC(=O)C(C(O)Cc2ccc(O)c(OS(=O)(=O)O)c2)NC(=O)C2CC(O)CN2C(=O)C(C(C)O)NC1=O | FP633 | - | 0.03 µg/mL
N=C(N)N1CCN(Cc2cccnc2SCc2c(F)cccc2F)CC1 | SC5314 CAI | - | >100 µg/mL
Cc1nc(NC(=O)c2ccc(F)cc2)sc1C(=O)N/N=C1/S/C(=C/c2ccccc2O)C(=O)N1c1ccccc1 | MTCC 227 | - | 100 µg/mL
C[C@H]1[C@H](O)[C@@H](C)/C=C/C=C/C=C/C=C/C=C/C=C/C=C/[C@H](O[C@@H]2O[C@H](C)[C@@H](O)[C@H](N)[C@@H]2O)C[C@@H]2O[C@](O)(C[C@@H](O)C[C@@H](O)CC[C@H](O)[C@@H](O)C[C@@H](O)CC(=O)O[C@H]1C)C[C@H](O)[C@H]2C(=O)O | ATCC 10231 | - | 1.25 µg/mL
CCC(c1ccc(OC)cc1)C(c1ccc(OC)cc1)n1ccnc1 | 28 strains | - | 256 µg/mL
C[C@H]1[C@H](O)[C@@H](C)/C=C/C=C/C=C/C=C/C=C/C=C/C=C/[C@H](O[C@@H]2O[C@H](C)[C@@H](O)[C@H](N)[C@@H]2O)C[C@@H]2O[C@](O)(C[C@@H](O)C[C@@H](O)CC[C@H](O)[C@@H](O)C[C@@H](O)CC(=O)O[C@H]1C)C[C@H](O)[C@H]2C(=O)O | 37 isolates | - | 0.25 µg/mL
Cc1nc(NC(=O)c2ccc(F)cc2)sc1C(=O)N/N=C1/S/C(=C/c2ccc(O)cc2)C(=O)N1c1ccccc1 | MTCC 227 | - | 50 µg/mL
CCCCCOc1ccc(-c2ccc(-c3ccc(C(=O)N[C@H]4C[C@@H](O)[C@@H](O)NC(=O)[C@@H]5[C@@H](O)[C@@H](C)CN5C(=O)[C@H]([C@H](C)O)NC(=O)[C@H]([C@H](O)[C@@H](O)c5ccc(O)cc5)NC(=O)[C@@H]5C[C@@H](O)CN5C(=O)[C@H]([C@H](C)O)NC4=O)cc3)cc2)cc1 | 10 strains (fluconazole- itraconazole-susceptible) | - | 0.06 µg/mL
C[C@@H](c1ncncc1F)[C@](O)(Cn1cncn1)c1ccc(F)cc1F | Isolate HR-Micro | 48 h | 0.02 µg/mL
c1ccc(-c2ccc(C(c3ccccc3)n3ccnc3)cc2)cc1 | ATCC 10231 | - | 10 µg/mL
COc1ccc(C(Cc2ccccc2N)n2ccnc2)cc1 | 34 strains | - | 64 µg/mL
Clc1cc(Cl)c2c(c1)CCc1ccccc1C2n1ccnc1 | 12 isolates | - | 0.03 µg/mL
N=C(N)N1CCN(Cc2cccnc2SCc2ccc(-c3ccccc3)cc2)CC1 | SC5314 CAI | - | 20 µg/mL
CCC(c1ccc(OC)cc1)C(c1ccc(OC)cc1)n1cncn1 | 28 strains | - | >256 µg/mL
Cc1cccc(/C=C2/S/C(=N/NC(=O)c3sc(NC(=O)c4ccc(F)cc4)nc3C)N(c3ccccc3)C2=O)c1 | MTCC 227 | - | 250 µg/mL
N=C(N)N1CCN(Cc2cccnc2SCc2ccc(C(F)(F)F)cc2)CC1 | SC5314 CAI | - | 75 µg/mL
OC[C@H]1CO[C@](Cn2ccnc2)(c2ccc(-c3ccccc3)cc2)O1 | 44 strains | - | 64 µg/mL
C/C=C/CN=C(N)NCCCCCCCN1CCCCCCCCN=C(N)NC1=O | ATCC 60193 | - | 2.5 µM
COc1cc(O)c2c(c1)C(=O)c1c(cc3c(c1O)-c1c(cc(C)c(C(=O)NC(CO)C(=O)O)c1O)[C@H](OC1OC(C)C(O)C(OC4OCC(O)C(O)C4O)C1O)C3O)C2=O | 34 isolates | - | 4 µg/mL
CC1=C(Cl)C(O)=CC(=O)C12Oc1cc(O)c(Cl)c(C)c1C2=O | MTCC 227 | - | 500 µg/mL
CCC(C)CC(C)CCCCCCCCC(=O)N[C@H]1C[C@@H](O)[C@@H](OCCN)NC(=O)[C@@H]2[C@@H](O)CCN2C(=O)[C@H]([C@@H](O)CCN)NC(=O)[C@H]([C@H](O)[C@@H](O)c2ccc(O)cc2)NC(=O)[C@@H]2C[C@@H](O)CN2C(=O)[C@H]([C@H](C)O)NC1=O | Fluconazole-resistant | - | 0.01 µg/mL
COc1ccc(C(Cc2cccc(-n3cccc3)c2)n2ccnc2)cc1 | 34 strains | - | 64 µg/mL
CCC(C)n1ncn(-c2ccc(N3CCN(c4ccc(OC[C@H]5CO[C@](Cn6cncn6)(c6ccc(Cl)cc6Cl)O5)cc4)CC3)cc2)c1=O | 34 isolates | - | 0.03 µg/mL
CC[C@@H]([C@H](C)O)n1ncn(-c2ccc(N3CCN(c4ccc(OC[C@@H]5CO[C@@](Cn6cncn6)(c6ccc(F)cc6F)C5)cc4)CC3)cc2)c1=O | - | - | 0.031 µg/mL
COc1cccc(/C=C2/S/C(=N/NC(=O)c3sc(NC(=O)c4ccc(F)cc4)nc3C)N(c3ccccc3)C2=O)c1 | MTCC 227 | - | 500 µg/mL
NC(N)=NCCCCCCCCCNCCCCCCCN=C(N)N | ATCC 60193 | - | 80 µM
C[C@H]1[C@H](O)[C@@H](C)/C=C/C=C/C=C/C=C/C=C/C=C/C=C/[C@H](O[C@@H]2O[C@H](C)[C@@H](O)[C@H](N)[C@@H]2O)C[C@@H]2O[C@](O)(C[C@@H](O)C[C@@H](O)CC[C@H](O)[C@@H](O)C[C@@H](O)CC(=O)O[C@H]1C)C[C@H](O)[C@H]2C(=O)O | 97 isolates | - | 0.5 µg/mL
COc1ccc(/C=C2/S/C(=N/NC(=O)c3sc(NC(=O)c4ccc(F)cc4)nc3C)N(c3ccccc3)C2=O)cc1 | MTCC 227 | - | 100 µg/mL
COc1ccc(C(Cc2cccc(Cl)c2)n2ccnc2)cc1 | 34 strains | - | 128 µg/mL
C[C@H]1[C@H](O)[C@@H](C)/C=C/C=C/C=C/C=C/C=C/C=C/C=C/[C@H](O[C@@H]2O[C@H](C)[C@@H](O)[C@H](N)[C@@H]2O)C[C@@H]2O[C@](O)(C[C@@H](O)C[C@@H](O)CC[C@H](O)[C@@H](O)C[C@@H](O)CC(=O)O[C@H]1C)C[C@H](O)[C@H]2C(=O)O | 25 isolates | - | 0.125 µg/mL
CC(C)=CCCNC(N)=NCCCCCCCCCNCCCCCCCN=C(N)N | 53T | - | 80 µM
CCCCCCCCCCCCCCCC(=O)NC1CC(O)C(O)NC(=O)C2C(O)C(C)CN2C(=O)C(C(O)CC(N)=O)NC(=O)C(C(O)C(O)c2ccc(O)c(OS(=O)(=O)O)c2)NC(=O)C2CC(O)CN2C(=O)C(C(C)O)NC1=O | FP629 | - | 0.008 µg/mL
OC[C@@H]1CO[C@](Cn2ccnc2)(c2ccc(-c3ccccc3)cc2)O1 | 44 strains | - | 32 µg/mL
CCC(C)n1ncn(-c2ccc(N3CCN(c4ccc(OC[C@H]5CO[C@](Cn6cncn6)(c6ccc(Cl)cc6Cl)O5)cc4)CC3)cc2)c1=O | 166 isolates | - | 0.03 µg/mL
COc1ccc(CC(c2ccc(OC)cc2)n2ccnc2)cc1 | 28 strains | - | 16 µg/mL

For reference, 4 entries again:

{"smiles": "N=C(N)N1CCN(Cc2cccnc2SCc2ccc(-c3ccccc3)cc2)CC1", "strain or isolate": "SC5314 CAI", "result": "20 µg/mL"}
{"smiles": "CC(=O)OCC1C=C(c2ccc(Cl)c(Cl)c2)C(=O)O1", "strain or isolate": "25 isolates", "result": "2 µg/mL"}
{"smiles": "Cc1nc(NC(=O)c2ccc(F)cc2)sc1C(=O)N/N=C1/S/C(=C/c2ccc(O)cc2)C(=O)N1c1ccccc1", "strain or isolate": "MTCC 227", "result": "50 µg/mL"}
{"smiles": "CCC(C)n1ncn(-c2ccc(N3CCN(c4ccc(OC[C@H]5CO[C@](Cn6cncn6)(c6ccc(Cl)cc6Cl)O5)cc4)CC3)cc2)c1=O", "strain or isolate": "34 isolates", "result": "0.03 µg/mL"}